The text below walks through data of patent US12365691B2, “Method of synthesizing (3S,3AR,5R,7AS,8S)-hexahydro-4H-3,5-methanofuro[2,3-b]pyran-8-ol” (Purdue Research Foundation, priority 2022, dated 2025).

For the experiment, the system named is HIVLAI. Kind of experiment: antiviral activity in MT-2 human-T-lymphoid cells exposed to HIVLAI. Format: cell-based, HIV-1. Conditions: read-out: antiviral IC50. The procedure:
Enantiomerically pure ligand alcohol 3 is converted into HIV-1 PI 2 as shown in Scheme 4 (FIG. 6). Reaction of the known (R)-(hydroxyethyl)sulfonamide isostere 4 with carbonate 14 in the presence of DIPEA at 23° C. for 5 days furnished HIV-1 PI 2 (e.g., in 84% yield).

The IC50 is the point on the concentration scale where inhibition reaches its midpoint. With `CC(C)CN(C[C@@H](O)[C@H](Cc1cc(F)cc(F)c1)NC(=O)O[C@H]1[C@H]2CO[C@H]3OC[C@@H]1[C@H]3C2)S(=O)(=O)c1ccc2nc(NC3CC3)sc2c1`, the IC50 came out at 17 pM.
